Measured data: PubChem BioAssay AID1259414 (Drosophila RNAi Screening Center, 2018)
The deposit covers about 24,000 reagents; shown is a random part of those with a known target gene and a result. In the full data, about 1,210 (5%) are marked active. 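Inactive calls also include excluded dsRNAs with several or no targets, genes unexpressed in JW18, and well A1, regardless of score.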

Purpose: 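Genome-wide screen for host control of endosymbiont load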 (primary screen)
Cell system: Drosophila JW18 cells infected with Wolbachia
Reagent: long dsRNA against Drosophila genes, 0.25 µg dsRNA per well of a 384-well plate
Timing: 5 days
Conditions: cells persistently infected with Wolbachia before knock-down; no added drug
Read-out: 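Imaged fluorescence in situ signal for Wolbachia 23S rRNA per DAPI-counted host cell, given as a robust z-score within each plate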
Scale: Wolbachia per cell robust z: higher = more Wolbachia per host cell than the plate typical
Hit rule: 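Hit when robust z is 1.5 or more, or -1.5 or less, in at least two of three replicates; excludes dsRNAs with several or no targets, genes not expressed in JW18 and well A1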

Femcoat (GeneID 31367) [DRSC18061]: Wolbachia per cell robust z, rep 1 = -0.00474; Wolbachia per cell robust z, rep 2 = 0.407; Wolbachia per cell robust z, rep 3 = -4.87; outcome = inactive
Femcoat (GeneID 31367) [DRSC28792]: Wolbachia per cell robust z, rep 1 = -6.25; Wolbachia per cell robust z, rep 2 = 0.665; Wolbachia per cell robust z, rep 3 = 0.862; outcome = inactive
aurB (GeneID 34504) [DRSC03548]: Wolbachia per cell robust z, rep 1 = -1.58; Wolbachia per cell robust z, rep 2 = 3.08; Wolbachia per cell robust z, rep 3 = 3.93; outcome = active
aurB (GeneID 34504) [DRSC23324]: Wolbachia per cell robust z, rep 1 = 0.078; Wolbachia per cell robust z, rep 2 = 0.42; Wolbachia per cell robust z, rep 3 = 0.92; outcome = inactive
ScsbetaG (GeneID 44001) [DRSC11294]: Wolbachia per cell robust z, rep 1 = 2.31; Wolbachia per cell robust z, rep 2 = 1.09; Wolbachia per cell robust z, rep 3 = 0.927; outcome = inactive
ScsbetaG (GeneID 44001) [DRSC26044]: Wolbachia per cell robust z, rep 1 = -0.259; Wolbachia per cell robust z, rep 2 = 0.185; Wolbachia per cell robust z, rep 3 = 0.568; outcome = inactive
drongo (GeneID 33263) [DRSC00814]: Wolbachia per cell robust z, rep 1 = 0.403; Wolbachia per cell robust z, rep 2 = 0.324; Wolbachia per cell robust z, rep 3 = 0.0485; outcome = inactive
drongo (GeneID 33263) [DRSC25074]: Wolbachia per cell robust z, rep 1 = 0.462; Wolbachia per cell robust z, rep 2 = -1.23; Wolbachia per cell robust z, rep 3 = -0.314; outcome = inactive
Shab (GeneID 38352) [DRSC08013]: Wolbachia per cell robust z, rep 1 = 1.39; Wolbachia per cell robust z, rep 2 = 0.433; Wolbachia per cell robust z, rep 3 = 0.731; outcome = inactive
Shab (GeneID 38352) [DRSC08643]: Wolbachia per cell robust z, rep 1 = 0.766; Wolbachia per cell robust z, rep 2 = -0.0574; Wolbachia per cell robust z, rep 3 = 0.507; outcome = inactive
Shab (GeneID 38352) [DRSC08699]: Wolbachia per cell robust z, rep 1 = -0.677; Wolbachia per cell robust z, rep 2 = 0.333; Wolbachia per cell robust z, rep 3 = -0.264; outcome = inactive
Shab (GeneID 38352) [DRSC28359]: Wolbachia per cell robust z, rep 1 = -0.553; Wolbachia per cell robust z, rep 2 = 0.457; Wolbachia per cell robust z, rep 3 = 0.593; outcome = inactive
rasp (GeneID 44098) [DRSC08191]: Wolbachia per cell robust z, rep 1 = -0.389; Wolbachia per cell robust z, rep 2 = 0.712; Wolbachia per cell robust z, rep 3 = -0.186; outcome = inactive
MsrA (GeneID 39675) [DRSC11159]: Wolbachia per cell robust z, rep 1 = -2.21; Wolbachia per cell robust z, rep 2 = -0.238; Wolbachia per cell robust z, rep 3 = -2.83; outcome = active
MESK2 (GeneID 37451) [DRSC04258]: Wolbachia per cell robust z, rep 1 = -6.91; Wolbachia per cell robust z, rep 2 = -0.0279; Wolbachia per cell robust z, rep 3 = -0.634; outcome = inactive
MESK2 (GeneID 37451) [DRSC28508]: Wolbachia per cell robust z, rep 1 = -1.6; Wolbachia per cell robust z, rep 2 = 0.302; Wolbachia per cell robust z, rep 3 = -0.883; outcome = inactive
Irk2 (GeneID 42770) [DRSC15569]: Wolbachia per cell robust z, rep 1 = -0.727; Wolbachia per cell robust z, rep 2 = -1.37; Wolbachia per cell robust z, rep 3 = -0.953; outcome = inactive
lncRNA:CR32657 (GeneID 3772397) [DRSC19403]: Wolbachia per cell robust z, rep 1 = -0.111; Wolbachia per cell robust z, rep 2 = -1.08; Wolbachia per cell robust z, rep 3 = -1.33; outcome = inactive
lncRNA:CR32657 (GeneID 3772397) [DRSC25753]: Wolbachia per cell robust z, rep 1 = -2.44; Wolbachia per cell robust z, rep 2 = -0.474; Wolbachia per cell robust z, rep 3 = -0.0814; outcome = inactive
CG14591 (GeneID 35531) [DRSC04868]: Wolbachia per cell robust z, rep 1 = -2.24; Wolbachia per cell robust z, rep 2 = -2.98; Wolbachia per cell robust z, rep 3 = -0.601; outcome = inactive
CG13484 (GeneID 39560) [DRSC10026]: Wolbachia per cell robust z, rep 1 = -1.58; Wolbachia per cell robust z, rep 2 = 0.394; Wolbachia per cell robust z, rep 3 = -0.792; outcome = inactive
CG13484 (GeneID 39560) [DRSC26663]: Wolbachia per cell robust z, rep 1 = 0.636; Wolbachia per cell robust z, rep 2 = -0.301; Wolbachia per cell robust z, rep 3 = -0.514; outcome = inactive
lncRNA:CR41257 (GeneID 19835919) [DRSC38682]: Wolbachia per cell robust z, rep 1 = 0.996; Wolbachia per cell robust z, rep 2 = 0.355; Wolbachia per cell robust z, rep 3 = 0.392; outcome = inactive
CCKLR-17D1 (GeneID 32860) [DRSC20011]: Wolbachia per cell robust z, rep 1 = 0.431; Wolbachia per cell robust z, rep 2 = 0.192; Wolbachia per cell robust z, rep 3 = -0.252; outcome = inactive
CCKLR-17D1 (GeneID 32860) [DRSC20012]: Wolbachia per cell robust z, rep 1 = -1.62; Wolbachia per cell robust z, rep 2 = -1.04; Wolbachia per cell robust z, rep 3 = -0.3; outcome = inactive
CCKLR-17D1 (GeneID 32860) [DRSC28081]: Wolbachia per cell robust z, rep 1 = 0.737; Wolbachia per cell robust z, rep 2 = 1.39; Wolbachia per cell robust z, rep 3 = 1.22; outcome = inactive

Part of the list above, limited to “Wolbachia per cell robust z, rep 3”.
rasp (GeneID 44098) [DRSC08191] = -0.186
MsrA (GeneID 39675) [DRSC11159] = -2.83
